Measurements taken from publication PMC8753867.

Tests used:
[1] = tested on: ArcA-P (phosphorylated ArcA-His6) (Vibrio cholerae); assay: EMSA; conditions: acetyl phosphate, ArcA: 10 mM Tris-HCl pH 8.0, 1 mM EDTA, 1 mM DTT, 50 mM KCl, 50 ug/mL BSA, 10% glycerol, 20 nM acetyl phosphate, CytR/CRP: 20 mM Tris-HCl pH 7.5, 50 mM KCl, recombinant protein, residues 1-238, protein details: His6 (pET-28a), probe letters rebuilt from the primers and the genome
[2] = tested on: CytR-His6 (Vibrio cholerae); assay: EMSA; conditions: CytR 0-3.6 uM, ArcA: 10 mM Tris-HCl pH 8.0, 1 mM EDTA, 1 mM DTT, 50 mM KCl, 50 ug/mL BSA, 10% glycerol, 20 nM acetyl phosphate, CytR/CRP: 20 mM Tris-HCl pH 7.5, 50 mM KCl, recombinant protein, residues 1-335, protein details: His6 (pET-28a), probe letters rebuilt from the primers and the genome

ATAAAGTCAGCTTGGGATCAAATTCCACCGGAATATCACAACTTGACTGCCGCTGAAGTGGGTATTTGATTTCTGTCAGAGAAACTTTTAACAGATATCACACCCAGCAAATGCTTGGTTGCCTTATTTGCTGATTTAAATAGAATAGAAGCCACTAACTAGCCAAGTGGCTTTTTTTGTTGCTGATTTCCACAAATTGTCTATCGTTTATTCAGGATCCAGAATAAAAATTAACACCTGAAAATGATGTTCAAACGGTGCAACCACAACTTCTTATAATAAAGGCAAATAATCTCACCT (double strand) [flrA promoter]
binding result ([1]; ArcA-P 0-2.4 uM): binds

GTCAAAAACGGAAATCCTATCAATGGCTGATGGAGAAAAAACAAACCGAACGTCAGTTATTACAAGAAAAACGCGAACAGAAACAGATGGATGAATTTTCGACCCTGATGTTCAATCGCCGCCGTCTCTCCTCATAAGGCGTAGTTTAAACGTCGTATCACGGCGCGAGCTTCTCCTCCTTGGATGCAATAAAACCTTCACTTGGCTTACTTCTTGCTAGATTTTCACAAAAGGGCGTTAACCCCAAGCTGTTACTGATGAGTTGATCTGCGCAGGTCATGCTCAGACTTCAATTCCACT (double strand) [fliK promoter]
binding result [2]: binds

ATCGCGTTTTATAACGCTGATGTGTGTTAATTTTGTCAGCAAATTAATGCTTATTATCGTGATGAAAATCACAGTGACTATGCAAAATTTGTTAATCTCGCCGTAACTTTCTGTTCTGAATCCCTTAGACTATCGGTAAAATCCACTCAGTGAATCGTTTTCGTTAAGCCCAACGTCATGGTTATGGCCATGATTTCTAG (double strand) [cytR promoter]
binding result ([1]; ArcA-P 0-6 uM): binds

For at least one entry, the source does not settle the construct or the ends of the probe.
